Compound potency records, mixed from different reports. Data source: NIAID ChemDB in PubChem.

Shared fields: growth or infection tests; agent: HIV-1

ECn: concentration that inhibits the pathogen or its effect by n%. Blank or dashed fields: not listed here. Neighbouring rows are from separate reports.

smiles	read-out	changes	cell line	strain or isolate	method	value
Cc1cn([C@H]2C[C@H](N=[N+]=[N-])[C@@H](CO)O2)c(=O)[nH]c1=O	EC50		CEM	IIIB	cytopathic effect / MTT	0.0045 µM
O=c1[nH]c(=O)n(COCCO)cc1C#Cc1ccccc1	EC50		PBMC	LAI	RT activity	>100 µM
CCc1cc(NCc2nc3c(Cl)ccc(Cl)c3o2)c(=O)[nH]c1C	EC50	RT-K101E	MT-4	NL4-3	p24	0.8 µM
Cc1csc(NC(=S)NCCC2=CCCCC2)n1	EC50		PBMC	IIIB		0.008 µM
Cc1cn([C@H]2C[C@H](N=[N+]=[N-])[C@@H](CO)O2)c(=O)[nH]c1=O	EC50		MT-4	HXB2D	p24	0.02 µM
C=CCN1Cc2cccc3[nH]c(=O)n(c23)C[C@@H]1C	EC50		MT-4	IIIB	cytopathic effect / MTT	70 µM
O=c1nc2oc(-c3ccccc3)cc2cn1COCCO	EC50		PBMC	LAI	RT activity	>100 µM
Cc1ccnc2c1NC(=O)c1cccnc1N2C1CC1	EC50	Pyridinone-resistant (RT Y181C K103N)	CEM + CEM-SS	A17	cytopathic effect / XTT	>38 µM
CCOC(=O)[C@H](C)NP(=O)(OC[C@@H]1O[C@H](n2cc(C)c(=O)[nH]c2=O)C[C@H]1N=[N+]=[N-])OC[C@H]1O[C@@H](n2cc(C)c(=O)[nH]c2=O)C[C@@H]1N=[N+]=[N-]	EC50		CEM + CEM-SS	LAI	RT activity	0.027 µM
Cc1cn([C@H]2C=C[C@@H](CO)O2)c(=O)[nH]c1=O	EC50	M41L/D67N/K70R/Y181C/G190A/L210W/T215Y/K219E	MT-2	Clinical isolate	recombinant virus assay	2.256 µM
Cc1occc1C(=S)Nc1ccc(Cl)c(/C=N/OC(C)(C)C)c1	EC50		CEM + CEM-SS	SK1	cytopathic effect / XTT	0.1 µM
CCCCCCCCc1cc2cn(CC=C(CO)CO)c(=O)nc2o1	EC90		PBMC	LAI	RT activity	39 µM
S=C(NCCc1ccccn1)Nc1ccc(Br)cn1	EC50	RT-K103N Y181C	PBMC	A17		>100 µM
Nc1nc(=O)n([C@@H]2CS[C@H](CO)O2)cc1F	EC50	M41L/D67N/K70R/M184V/L210W/T215Y/K219E	MT-2	Clinical isolate	recombinant virus assay	>13.3 µM
CCCCNP(=O)(OC[C@@H]1O[C@H](n2cc(C)c(=O)[nH]c2=O)C[C@H]1N=[N+]=[N-])OC[C@H]1O[C@@H](n2cc(C)c(=O)[nH]c2=O)C[C@@H]1N=[N+]=[N-]	EC50		CEM + CEM TK-	LAI	RT activity	70 µM
O=S(=O)(c1ccccc1)c1ccccc1	EC50	RT-Y181C	CEM + CEM-SS	UC82-R (RT-Y181C)	cytopathic effect / XTT	>114 µM
CC(C)[C@H](NC(=O)N(C)Cc1ccccn1)C(=O)N[C@@H](Cc1ccccc1)[C@H](O)C(=O)N1[C@H](C(=O)NC(C)(C)C)C[C@@H]2CCCC[C@@H]21	EC90		MT-2	RF	p24	2.2 µM
CCCCCCCCc1cc2cn(COCCO)c(=O)nc2o1	EC50		PBMC	LAI	RT activity	49.8 µM
Cc1cn([C@H]2C[C@H](N=[N+]=[N-])[C@@H](CO)O2)c(=O)[nH]c1=O	EC50		CEM + CEM-SS	McK	cytopathic effect / MTT	0.005 µM
CC(C)Nc1cccnc1N1CCN(C(=O)c2cc3cc(NS(C)(=O)=O)ccc3[nH]2)CC1	EC50	RT-V106A	PBMC	RT-MDR(RT-V106A)		0.4 µM
Nc1nc(=O)n([C@@H]2C[Se][C@H](CO)O2)cc1F	EC50		PBMC	LAV	RT activity	0.21 µM
CC(C)(C)NC(=O)[C@@H]1CCCN1C(=O)[C@@H](O)[C@H](Cc1ccccc1)NC(=O)[C@H](CC(N)=O)NC(=O)COc1cccc2ccccc12	EC90		MT-2	RF	p24	0.36 µM
Cc1ccnc2c1NC(=O)c1cccnc1N2C1CC1	EC50	RT-V106A	PBMC	RT-MDR(RT-V106A)		5 µM
Nc1nc2c(ncn2[C@H]2CC[C@@H](CO)O2)c(=O)[nH]1	EC50		C3	LAV	p24	0.12 µM
CC(C)(C)NC(=O)[C@@H]1C[C@@H]2CCCC[C@@H]2N1C(=O)[C@@H](O)[C@H](Cc1ccc(O)cc1)NC(=O)[C@H](CC(N)=O)NC(=O)COc1cccc2ccccc12	EC90		MT-2	RF	p24	1.42 µM
Nc1ccn([C@H]2CC[C@@H](CO)O2)c(=O)n1	EC90		C3	LAV	p24	2 µM
CN[C@@H]1[C@H](O[C@@H]2OC[C@@H](O)[C@H](O)[C@H]2O)[C@@H](O)[C@H](O[C@H]2c3cc(C)c(C(=O)N[C@H](C)C(=O)O)c(O)c3-c3c(cc4c(c3O)C(=O)c3cc(OC)cc(O)c3C4=O)[C@@H]2O)O[C@@H]1C	EC50		PBMC	BAL R5	p24	2.2 µg/mL
C=CCN1Cc2cccc3[nH]c(=O)n(c23)CC1C	EC50		MT-4	IIIB	cytopathic effect / MTT	62 µM
CC(C)(C)NC(=O)[C@@H]1C[C@@H]2CCC[C@@H]2N1C(=O)[C@@H](O)[C@H](Cc1ccccc1)NC(=O)[C@H](CC(N)=O)NC(=O)OCc1ccccc1	EC50		MT-2	RF	p24	0.078 µM
Nc1ccn([C@H]2CC[C@@H](CO)O2)c(=O)n1	EC50		PBL	IIIB	p24	0.08 µM
S=C(NCCc1cccs1)Nc1ccc(Br)cn1	EC50	RT-M41L T215Y	PBMC	P798-1 Clinical isolate NRTI-resistant	p24	0.016 µM
NC(=O)c1ncn([C@@H]2O[C@H](CO)[C@@H](O)[C@H]2O)n1	EC90		C3	LAV	p24	178 µM

3 of the rows above, restated:

Cc1cn([C@H]2C[C@H](N=[N+]=[N-])[C@@H](CO)O2)c(=O)[nH]c1=O ; read-out: EC50 ; cell line: CEM + CEM-SS ; strain or isolate: McK ; method: cytopathic effect / MTT ; value: 0.005 µM
CC(C)(C)NC(=O)[C@@H]1C[C@@H]2CCC[C@@H]2N1C(=O)[C@@H](O)[C@H](Cc1ccccc1)NC(=O)[C@H](CC(N)=O)NC(=O)OCc1ccccc1 ; read-out: EC50 ; cell line: MT-2 ; strain or isolate: RF ; method: p24 ; value: 0.078 µM
O=c1[nH]c(=O)n(COCCO)cc1C#Cc1ccccc1 ; read-out: EC50 ; cell line: PBMC ; strain or isolate: LAI ; method: RT activity ; value: >100 µM